Data: patent US20090275083A1, “Isolated peptides having phospholipase inhibitory activity” (published 2009)
Numbering of substitutions follows the chain as printed. Numbers in names are those of the source.

T1: Fusarium oxysporum lipase (FoL) variant I207E (Fusarium oxysporum)
T1 chain: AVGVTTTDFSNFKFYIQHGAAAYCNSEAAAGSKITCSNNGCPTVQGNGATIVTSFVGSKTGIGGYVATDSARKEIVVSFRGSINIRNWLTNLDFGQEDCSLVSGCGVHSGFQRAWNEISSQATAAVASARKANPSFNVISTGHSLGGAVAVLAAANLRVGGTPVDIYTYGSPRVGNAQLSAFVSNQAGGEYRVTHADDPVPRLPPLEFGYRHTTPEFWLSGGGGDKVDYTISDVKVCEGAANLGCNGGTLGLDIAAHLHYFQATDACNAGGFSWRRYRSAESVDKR

T2: Fusarium oxysporum lipase (FoL), wild type (Fusarium oxysporum)
T2 chain: T1 chain with E207I


Biological target: T1, Fusarium oxysporum lipase (FoL) variant …
Experiment: cell-based or functional assay

Compared with ATMTEAELEKKLNSYVQMDKEYVKNNQARS (modifications not checked) [Peptide P1 (D291E)], ATMTDAELTKKLNSYVQMDKEYVKNNQARS (modifications not checked) [Peptide P2 (E295T)] is lower in IC50 (half maximal inhibitory concentration; p-NP butyrate hydrolysis) (peptide/lipase ratio): 1010 for the first, 782 for the second.

First: ATMTDAELEKRLNSYVQMDKEYVKNNQARS (modifications not checked) [Peptide P3 (K297R)]
Second: ATMTDAELEKKLNSYVQMDKEEVKNNQARS (modifications not checked) [Peptide P4 (Y308E)]
The IC50 (half maximal inhibitory concentration; p-NP butyrate hydrolysis) (peptide/lipase ratio) of the first is lower: 301 for the first, > 1000 for the second.

Biological target: T2, Fusarium oxysporum lipase (FoL), wild …
Experiment: cell-based or functional assay

ATMTDAELTKKLNSYVQMDKEYVKNNQARS (modifications not checked) [Peptide P2 (E295T)] and ATMTDAELEKRLNSYVQMDKEYVKNNQARS (modifications not checked) [Peptide P3 (K297R)] cannot be ordered by IC50 (half maximal inhibitory concentration; p-NP butyrate hydrolysis) (peptide/lipase ratio): > 1000 for the first, 1560 for the second.
